# Laboratory results reported in patent US8535672B2, “Broad-spectrum in-vivo effective superantigen toxin antagonists based on the interaction between CD28 and the superantigen and uses thereof” (Yissum Research Development of the Hebrew University of …, priority 2003, dated 2013).
# Read-outs that look alike come from different tables or passages of the source.
# B1: sB7-2: soluble recombinant B7-2 extracellular domain fused to His6-tagged Fc region of human IgG (R&D Systems 141-B2) (protein)
# chain: LSGAAPLKIQAYFNETADLPCQFANSQNQSLSELVVFWQDQENLVLNEVYLGKEKFDSVHSKYMGRTSFDSDSWTLRLHNLQIKDKGLYQCIIHHKKPTGMIRIHQMNSELSVLANFSQPEIVPISNITENVYINLTCSSIHGYPEPKKMSVLLRTKNSTIEYDGVMQKSQDNVTELYDVSISLSVSFPDVTSNMTIFCILETDKTRLLSSPFSIELEDP
# modifications: left off: a dimerising Fc or GST; small tags and cut ends
# Legend:
# [1] = tested on: IL2 and IFN-γ mRNA induced by SEB in human PBMC; format: cell-based
# [2] = tested on: IL2 and IFN-γ mRNA in human PBMC; format: cell-based
# soluble CD28 (sCD28) = molecular target: T1, soluble CD28 (sCD28) (Homo sapiens, UniProt P10747); format: binding
# T1 construct: comprise the extracellular 37-162, 19-152, 21-141, 24-167 and 20-239 amino acid, respectively, of the mature human ligands domain; purchased R&D Systems 342-CD; host or cells: mouse myeloma NS0 cells
# [3] = tested on: IL10 and IL4 induced by SEB in human PBMC; format: cell-based
molecule,measurement,setting,value
B1,antagonism of SEB-mediated induction of IL2 and IFN-γ mRNA,[1],strongly inhibited
same,induction of Th1 cytokine mRNA by the substance alone (agonist activity),[2],vigorous induction
same,Kd,soluble CD28 (sCD28); read-out: KD (Kd) for binding to immobilized sCD28,19 nM
same,Kd,soluble CD28 (sCD28); read-out: Kd for binding of sB7-2 to immobilized sCD28,19 nM
same,effect on SEB-mediated induction of IL10 / IL4 (Th2 response),[3],inhibited neither by sCD28 nor by sB7-2
